Experimental data as given in patent US20080292586A1 (priority 2005, published 2008).

Tested on: H5N1 Avian influenza virus (A/VN/1203/04)
Assay type: cell-based
Parameters: SI50: unit not given beside the values

Interferon alpha 2a
IC25: 12.08 IU
IC50: 32.08 IU
IC50 (IU/ml): 32.08 IU/ml
IC50 (pg/ml): 114.64 pg/mL
IC90: 86.06 IU
SI50: 31.2

Interferon beta 1a
Fold-difference compared to IC50 (Multiferon): 17.24 and 23.05
IC50 (IU/ml): 10.69 IU/ml
IC50 (pg/ml): 130.01 pg/mL

Values joined by “and” are separate entries in the source; they are usually repeats but may differ in a detail not shown here. Equal entries are not always repeated.
